{"source": "PubChem BioAssay AID624099 (ICCB-Longwood, 2012)", "aim": "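Knock-downs relieving repression by E2 of an HPV18 LCR luciferase reporter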 (primary screen)", "cells": "human C33A cervical carcinoma cells (HPV-negative) stably expressing BPV1 E2 and an HPV18 LCR luciferase reporter", "knock-down reagent": "siRNA pool against human genes, 40 nM", "duration": "72 h", "read-out": "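Per-well luciferase luminescence, z-scored on each plate against the plate mean and SD with control wells left out, then averaged across three replicate plates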", "scale": "mean z-score and z-score: higher = stronger reporter signal, weaker E2 silencing", "active means": "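Hit if mean z-score reaches 2 and two or more of three replicate z-scores also reach 2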", "note": "The deposit covers about 21,000 reagents; this is a part drawn at random. Over the whole deposit, 497 (2.4%) were called active. 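Higher z means weaker E2 silencing; only reporter increases were scored, and knock-downs that hurt cell survival may mask genuine repressor factors.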"}
{"gene symbol":"WDR44","mean z-score":-1.06,"z-score, replicate A":-1.42,"z-score, replicate B":-0.99,"z-score, replicate C":-0.78,"Call":"inactive"}
{"gene symbol":"ZNF576","mean z-score":0.47,"z-score, replicate A":0.67,"z-score, replicate B":0.16,"z-score, replicate C":0.59,"Call":"inactive"}
{"gene symbol":"FCHO1","mean z-score":-0.62,"z-score, replicate A":-0.78,"z-score, replicate B":-0.62,"z-score, replicate C":-0.45,"Call":"inactive"}
{"gene symbol":"ZMIZ1-AS1","mean z-score":0.62,"z-score, replicate B":0.5,"z-score, replicate C":0.73,"Call":"inactive"}
{"gene symbol":"PROX2","mean z-score":0.3,"z-score, replicate A":0.01,"z-score, replicate B":0.61,"z-score, replicate C":0.27,"Call":"inactive"}
{"gene symbol":"MT-CO2","mean z-score":0.55,"z-score, replicate A":0.62,"z-score, replicate B":0.78,"z-score, replicate C":0.25,"Call":"inactive"}
{"gene symbol":"ZSCAN12","mean z-score":-0.32,"z-score, replicate A":-0.56,"z-score, replicate B":-0.17,"z-score, replicate C":-0.21,"Call":"inactive"}
{"gene symbol":"SLC38A12","mean z-score":0.24,"z-score, replicate A":-0.15,"z-score, replicate B":0.15,"z-score, replicate C":0.73,"Call":"inactive"}
{"gene symbol":"TYROBP","mean z-score":0.86,"z-score, replicate A":0.63,"z-score, replicate B":0.76,"z-score, replicate C":1.19,"Call":"inactive"}
{"gene symbol":"COQ2","mean z-score":0.33,"z-score, replicate A":-0.11,"z-score, replicate B":0.78,"z-score, replicate C":0.33,"Call":"inactive"}
{"gene symbol":"GPR15LG","mean z-score":-0.03,"z-score, replicate A":-0.41,"z-score, replicate B":0.2,"z-score, replicate C":0.11,"Call":"inactive"}
{"gene symbol":"C11orf68","mean z-score":1.88,"z-score, replicate A":2.12,"z-score, replicate B":2.15,"z-score, replicate C":1.38,"Call":"inactive"}

Entries above whose target name starts with Z or z:
{"gene symbol":"ZNF576","mean z-score":0.47,"z-score, replicate A":0.67,"z-score, replicate B":0.16,"z-score, replicate C":0.59,"Call":"inactive"}
{"gene symbol":"ZMIZ1-AS1","mean z-score":0.62,"z-score, replicate B":0.5,"z-score, replicate C":0.73,"Call":"inactive"}
{"gene symbol":"ZSCAN12","mean z-score":-0.32,"z-score, replicate A":-0.56,"z-score, replicate B":-0.17,"z-score, replicate C":-0.21,"Call":"inactive"}
